# Screening data, single-dose tests

Measurements from “University of Dundee, Small-Polar-MMV Screening Library” (2021), ChEMBL document CHEMBL3988442.

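Phenotypic screen: M. tuberculosis growth, glucose 7H9 medium, 3 days; the read-out is not stated. Tested at 500 µM. Higher reads as more growth inhibition (inferred: compounds with an IC50 in retests scored well above the rest). Of about 18,000 compounds tested this way, about 1,400 (7.9%) reached 50% or more in at least one test.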

Values are the deposited “Percent Effect”, in %. The controls that fix the scale are not given in the record; negative values are as filed. This is part of a subset picked to be rich in strong results.

Compound	effect
O=c1[nH]c2ccc(S(=O)(=O)CCO)cc2o1	-10.11
COC(=O)C1CCN(S(=O)(=O)Cc2ccccc2)CC1	0.1494
CCn1nnc2cc(C(=O)NCCCN(C)C)ccc21	13.37
OC[C@@H]1CCCN1Cc1cccc(F)c1F	58.3
CCCS(=O)(=O)N(C)Cc1cccc(OCC)n1	61.91
CSCc1cc(F)ccc1CNC(=O)c1cn[nH]c1C	57.98
C=C(C)CNC(=O)Nc1cc(F)cc(OC)c1	45.71
CC(CO)(CO)NC(=O)c1cnc(-c2cccs2)s1	50.21
COCC(=O)Nc1ccc(-n2cccn2)nc1	20.19
CCN1CCN(CCOc2ccccc2CO)CC1	16.82
O=C(Cc1c[nH]c2ccccc12)N1CCNCC1	20.71
CC(C)NC(=O)Cc1ccsc1	5.763
Nc1nc(CO)cs1	16.11
NCCNC(=O)CCCc1ccccc1	12.14
CC(=O)N1CCC(OCCOc2ccccc2)CC1	46.24
COC(=O)c1ccc(=O)n(CC(=O)NCCC(C)C)c1	-4.805
CCS(=O)(=O)N(C)C(=O)CCc1c[nH]c2ccccc12	94.26
O=C(Nc1ccn(-c2ccccc2)n1)C1CCCO1 (centres undefined)	33.83
CCc1cccc(CN)c1	2
CCn1c(SCC(N)=O)nnc1-c1cccnc1	-11.12
Cc1cc(C)c(CNC(=O)Cc2cccs2)c(=O)[nH]1	27.21
CCCn1cc(C(=O)N2CCCC(C#N)C2)c(C)n1 (centres undefined)	-3.234
O=C(CC1COCCN1)NCCCc1ccccc1F (centres undefined)	25.03
Cc1cc(C)c(CN2CCOC(CN)C2)cc1C (centres undefined)	79.41
c1cn(C2CCNCC2)nn1	97.7
COc1ccc(CN)cc1OC(F)F	41.01
O=C(NCCCc1ccccc1)C1CNCCO1 (centres undefined)	11.37
COCCN(C)CCNC(=O)c1cccc(Cl)c1	11.59
CC[C@@H](N)c1ccc(F)cc1	13.06
COc1ccc(C(C#N)N2CCNCC2)cc1 (centres undefined)	7.009
COC(C(=O)Nc1cnccc1CO)c1ccccc1 (centres undefined)	8.346
Cc1cnc(CN2CCC(N)CC2)c(C)c1O	-1.839
COc1ccc(CC(=O)N2CCCNCC2)cc1	46.73
Cn1cc(Br)c(=O)c(NC(=O)c2cc(Cl)ccn2)c1	5.704
N#CCC(=O)c1ccccc1OC(F)F	35.12
CN(C)C(=O)C1CCCN1C(=O)c1cccc(C#N)c1 (centres undefined)	-2.588
O=C(N[C@H]1CCCNC1)c1cccc(F)c1Cl	11.84
COCCNC(=O)C1CC(=O)N(c2ccccc2F)C1 (centres undefined)	-1.448
O=C(c1c(F)cc(F)cc1F)C1CCNCC1	22.65
Nc1ncccc1C(=O)NCCC1=CCCCC1	72.05
CN(C(=O)CC(N)c1ccccc1)c1cccc(F)c1 (centres undefined)	8.001
COCc1nn(Cc2csc(C(C)C)n2)c(=O)o1	71
O=C(NC1CCS(=O)(=O)C1)c1cc2cccc(Cl)c2s1 (centres undefined)	0.5649
COC(=O)N1CCCC(C(=O)NCc2c[nH]nc2C)C1 (centres undefined)	14.07
NCC(=O)Nc1cccc(F)c1	0.5016
Cc1ccsc1CNC(=O)N1CCOCC1	25.79
COc1ccc(N2CCN(CCCN)CC2)cc1	30.59
CC(C)(C)OC(=O)N1CCCC(CN)C1 (centres undefined)	21.46
COc1ccc(F)cc1C(=O)N1CCC(CN)CC1	26.21
CN(Cc1ccc(Cl)cc1)C(=O)C1CCNC1 (centres undefined)	22.85
CC(c1nc(-c2ccccn2)no1)N1CCSCC1 (centres undefined)	54.63
CCOc1cc(C(=O)NCCCOC(C)C)ccn1	78.87
CC1(C#N)CCN(CCn2cc(Cl)cn2)CC1	13.89
O=S(=O)(Cc1ccc(Cl)cc1Cl)CC(O)CO (centres undefined)	27.8
N#Cc1ccccc1N1CCCC(N)C1 (centres undefined)	66.64
CC[C@H](CO)Nc1ccnc2cc(Br)cnc12	-6.916
CNS(=O)(=O)c1ccc(C(=O)NC(C)COC)cc1 (centres undefined)	-8.535
COC(=O)NCC(=O)N(C)c1ccc2ccccc2c1	50.48
CN(C)C(=O)N1CCN(c2cccc(F)c2C#N)CC1	0.8101
Cc1ccccc1C(=O)NC1CCN(CCCO)CC1	-8.04
COc1ccc(Nc2ncccc2S(N)(=O)=O)cc1	45.26
COC(=O)c1ccccc1NC(=O)c1csnn1	-6.098
CN(C)C(=O)CNc1ccc(OC(F)F)c(Cl)c1	-14.35
Cc1nn(C)c(C(=O)NC2CC2)c1Br	18.89
NC1CC(c2cc(NCCCn3ccnn3)ncn2)C1 (centres undefined)	1.758
CN(Cc1cccs1)C(N)=O	-6.769
NC(=O)CN(Cc1ccc(Br)cc1)C(=O)c1ccco1	52.53
N[C@@H]1CCN(Cc2ccc(C(F)(F)F)nc2)C[C@H]1O	9.67
COCc1nc2ccccc2n1CC(=O)NCC(C)C	-2.002
O=C(Nc1n[nH]c(C2CCC2)n1)c1cc(F)ccc1F	-2.146
NC(=O)Cc1csc(-c2ccco2)n1	21.87
NC(=O)N1CCCC(C(=O)NCc2ccccc2)C1 (centres undefined)	7.51
COCCC(C)NC(=O)Nc1ccc(C#N)cc1 (centres undefined)	57.64
CCC(C)(C)NC(=O)Cn1ccc(C(F)(F)F)n1	22.76
Cc1cc(C(=O)N[C@H]2CCCNC2)n(C)n1	12.4
Cc1nc(O)c(C(=O)NCc2ncc[nH]2)cc1Br	-0.9838
CC(CO)NS(=O)(=O)c1cc(N(C)C)ccc1Br (centres undefined)	38.39
CC(O)CNC1CCS(=O)(=O)CC1 (centres undefined)	-1.338
COc1ccc(C(C(N)=O)N2CCOCC2)cc1 (centres undefined)	5.764
O=C(Nc1ccc(-n2cncn2)nc1)N1CCSCC1	1.305
COc1ccc(OCCN2CCC(O)CC2)cc1	4.882
CCOc1cccc(NC(=O)c2cnn(CC)c2)n1	-5.321
NC(CCO)c1ccc(F)cc1 (centres undefined)	8.893
COC(=O)CCN1CCN(CC2CCCC2)C(=O)C1	40.79
CC(Cn1cccn1)NCc1ccncc1 (centres undefined)	9.77
N#Cc1ncn(CC(N)=O)n1	4.972
COc1cc(C(C)N)ccc1OCc1ccncc1 (centres undefined)	42.7
Cn1nccc1[C@@H]1OCCC[C@H]1CN	8.217
CCN(CCOC)C(=O)c1cc(-c2cccn2C)n[nH]1	-0.07939
COc1cc(F)c(C(=O)NCC2CCCCO2)c(F)c1 (centres undefined)	11.56
COc1ccccc1S(=O)(=O)NC1CCN(C)CC1	6.804
NC(=O)C1CCN(C2=NS(=O)(=O)c3ccccc32)CC1	5.775

Once more, the final 9:

Compound,effect
COC(=O)CCN1CCN(CC2CCCC2)C(=O)C1,40.79
CC(Cn1cccn1)NCc1ccncc1 (centres undefined),9.77
N#Cc1ncn(CC(N)=O)n1,4.972
COc1cc(C(C)N)ccc1OCc1ccncc1 (centres undefined),42.7
Cn1nccc1[C@@H]1OCCC[C@H]1CN,8.217
CCN(CCOC)C(=O)c1cc(-c2cccn2C)n[nH]1,-0.07939
COc1cc(F)c(C(=O)NCC2CCCCO2)c(F)c1 (centres undefined),11.56
COc1ccccc1S(=O)(=O)NC1CCN(C)CC1,6.804
NC(=O)C1CCN(C2=NS(=O)(=O)c3ccccc32)CC1,5.775